Pooled drug test results. Numbers come from NIAID ChemDB, via PubChem.

Common to all: whole-cell or culture tests; species: Tacaribe virus

ECn: concentration that inhibits the pathogen or its effect by n%. Blank or dashed fields: not listed here. Neighbouring rows are from separate reports.

SMILES,endpoint,method,cells,strain,result
Nc1ncnc2c1ncn2CCCC(O)CF,EC50,cytopathic effect,VERO,-,>50 µg/mL
C[C@@]1(O)[C@@H](CO)O[C@@H](n2cnc3c(N)ncnc32)[C@@H]1O,EC50,cytopathic effect,VERO,-,10 µg/mL
Cc1cn(CCCC(O)CF)c(=O)[nH]c1=O,EC50,cytopathic effect,VERO,-,>200 µg/mL
Nc1ccn([C@@H]2C[C@H](CO)[C@@H](O)[C@H]2O)c(=O)n1,EC50,cytopathic effect,VERO,-,0.3 µg/mL
O=C(N/N=C/c1ccc(Cl)cc1Cl)c1ccccc1SSc1ccccc1C(=O)N/N=C/c1ccc(Cl)cc1Cl,EC50,virus yield,VERO,11573,20.6 µM
CC[C@H](O)C1=C[C@@H](n2cnc3c(N)ncnc32)[C@H](O)[C@@H]1O,EC50,cytopathic effect,VERO,-,50 µg/mL
Nc1ncnc2c1ncn2[C@@H]1C=C[C@@H](O)[C@H]1O,MIC,-,-,-,2 µg/mL
Nc1nc(F)nc2c1ncn2[C@@H]1C=C(CO)[C@@H](O)[C@H]1O,EC50,cytopathic effect,VERO,-,0.7 µg/mL
c1ccc(SSc2ccccn2)nc1,EC50,virus yield,VERO,11573,37.5 µM
Nc1ncnc2c1ccn2[C@@H]1C[C@H](O)[C@@H](O)[C@H]1O,EC50,-,VERO,-,8 µg/mL
Nc1ncnc2c1ncn2[C@@H]1CC[C@@H](O)[C@H]1O,MIC,-,-,-,0.01 µg/mL
C#C[C@@H](O)C1=C[C@@H](n2cnc3c(N)ncnc32)[C@H](O)[C@@H]1O,EC50,cytopathic effect,VERO,-,>50 µg/mL
Nc1ncnc2c1ncn2[C@@H]1O[C@H](CO)[C@](O)(C(F)(F)F)[C@H]1O,EC50,cytopathic effect,VERO,-,14 µg/mL
O=[N+]([O-])c1cccc(SSc2cccc([N+](=O)[O-])c2)c1,EC50,virus yield,VERO,11573,12.5 µM

Repeating the first 2 entries:

SMILES | endpoint | method | cells | strain | result
Nc1ncnc2c1ncn2CCCC(O)CF | EC50 | cytopathic effect | VERO | - | >50 µg/mL
C[C@@]1(O)[C@@H](CO)O[C@@H](n2cnc3c(N)ncnc32)[C@@H]1O | EC50 | cytopathic effect | VERO | - | 10 µg/mL